Source: US4886663A (priority 1983, dated 1989)

Tested on: M-ST antigen
Experiment: rabbit antiserum titer against M-ST after immunization with non-conjugated ST (ELISA)
Conditions: same protocol; believed, not tested

AsnThrPheTyrCysCysGluLeuCysCysTyrProAlaCysAlaGlyCysAsn
induction of anti-ST antibodies when non-conjugated to a carrier: would induce substantially no anti-ST antibodies
